Anti-infective test results gathered from many reports (values: NIAID ChemDB through PubChem).

Common to all: growth or infection tests; species: HIV-1; cells: HeLa; measure: EC50

ECn: concentration that inhibits the pathogen or its effect by n%. Rows are shuffled and stem from different studies. An empty or dashed field is not shown.

| SMILES | strain | mutations | method | setting | result |
|---|---|---|---|---|---|
| NS(=O)(=O)c1ccc(NC(=O)CSc2nnc(C(F)(F)F)n2-c2cccc3ccccc23)c(Cl)c1 |  | Y188L |  |  | 0.049 µM |
| Nc1ccn([C@H]2C[C@H](O)[C@](CO)(CF)O2)c(=O)n1 | HXB2 |  | β-galactosidase |  | 0.0046 µM |
| Cc1cn([C@H]2C=C[C@@H](CO)O2)c(=O)[nH]c1=O | Recombinant | RT-M41L S68N G112S M184V | luciferase |  | 0.73 µM |
| CCn1nc(Cc2ccc(OC(F)(F)F)cc2)cc1C1CCN(C[C@H]2CN([C@@H](C(=O)O)C(C)(C)C)C[C@@H]2c2cccc(F)c2)CC1 | BaL |  | β-galactosidase | 50% human serum | <0.1 µM |
| Cc1cc(C)c2ccc(C)c(-n3c(SCC(=O)Nc4ccc(S(N)(=O)=O)cc4Cl)nnc3C(F)(F)F)c2n1 |  | Y188L |  |  | 0.004 µM |
| COC(=O)c1cc(C#N)cc(C(=O)c2cc(Cl)ccc2OCC(=O)Nc2ccc(S(N)(=O)=O)cc2C)c1 |  | Y181C |  |  | 0.0029 µM |
| C=C[C@]1(CO)O[C@@H](n2cc(C)c(=O)[nH]c2=O)C[C@@H]1O |  | RT-M184V | β-galactosidase |  | >100 µM |
| COc1ccc(-n2c(C)nnc2SCC(=O)Nc2ccccc2Br)c2ccccc12 |  | Y188L |  |  | 0.457 µM |
| Cc1cn([C@H]2C[C@H](N=[N+]=[N-])[C@@H](CO)O2)c(=O)[nH]c1=O | Recombinant | RT-M41L V118I M184V | luciferase |  | 0.024 µM |
| CC[C@@H](C)[C@H](C(=O)O)N1C[C@H](CN2CCC(c3cc(Cc4ccc(C(F)(F)F)cc4)nn3CC)CC2)[C@@H](c2cccc(F)c2)C1 | BaL |  | β-galactosidase | 50% human serum | <0.1 µM |
| COc1cnc2c(-n3c(C)nnc3SCC(=O)Nc3ccc(S(N)(=O)=O)cc3Cl)cccc2c1 |  | Y188L |  |  | 0.372 µM |
| CC[C@H](C)[C@H](C(=O)O)N1C[C@H](CN2CCC(c3cc(Cc4ccc(O)cc4)nn3CC)CC2)[C@@H](c2cccc(F)c2)C1 | BaL |  | β-galactosidase |  | <0.0004 µM |
| Cn1c2ccccc2c2c1cc(C#N)c(=O)n2-c1ccc([N+](=O)[O-])cc1 | NNRTI-resistant | RT-K103N V108I | luciferase |  | 0.0276 µM |
| CCn1nc(Cc2ccc(S(C)(=O)=O)cc2)cc1C1CCN(C[C@H]2CN([C@@H](C(=O)O)C3CCCCC3)C[C@@H]2c2cccc(F)c2)CC1 | BaL |  | β-galactosidase | 50% human serum | <0.011 µM |
| Cc1cc(S(N)(=O)=O)ccc1NC(=O)COc1ccc(Cl)cc1C(=O)c1cc(C#N)cc(OC(F)F)c1 |  | WTRVA |  |  | 0.0009 µM |
| NS(=O)(=O)c1ccc(NC(=O)CSc2nnc(C(F)(F)F)n2-c2cccc3cccnc23)c(Cl)c1 |  | Y188L |  |  | 0.182 µM |
| Cc1cc(S(N)(=O)=O)ccc1NC(=O)COc1ccc(Cl)cc1C(=O)c1cc(C#N)cc(C(=O)N2CCCC2)c1 |  | K103N |  |  | 0.0855 µM |
| C#C[C@]1(CO)O[C@@H](n2cc(C)c(=O)[nH]c2=O)C[C@@H]1O |  | RT-K65R | β-galactosidase |  | 0.53 µM |
| CC[C@H](C)[C@H](C(=O)O)N1C[C@H](CN2CCC(c3cc(Cc4cccc(CN)c4)nn3CC)CC2)[C@@H](c2cccc(F)c2)C1 | BaL |  | β-galactosidase | 50% human serum | <0.011 µM |
| CC[C@]1(CO)O[C@@H](n2cc(C)c(=O)[nH]c2=O)C[C@@H]1O | HXB2 |  | β-galactosidase |  | >100 µM |
| Cc1cc(S(N)(=O)=O)ccc1NC(=O)COc1ccc(Cl)cc1C(=O)c1cc(N)cc(C#N)c1 |  | Y181C |  |  | 0.0068 µM |
| Cc1cc(C)c2ccccc2c1-n1c(C)nnc1SCC(=O)Nc1ccc(S(N)(=O)=O)cc1Cl |  | Y188L |  |  | 0.004 µM |

Repeating the final 3 entries:

{"SMILES": "CC[C@]1(CO)O[C@@H](n2cc(C)c(=O)[nH]c2=O)C[C@@H]1O", "strain": "HXB2", "method": "β-galactosidase", "result": ">100 µM"}
{"SMILES": "Cc1cc(S(N)(=O)=O)ccc1NC(=O)COc1ccc(Cl)cc1C(=O)c1cc(N)cc(C#N)c1", "mutations": "Y181C", "result": "0.0068 µM"}
{"SMILES": "Cc1cc(C)c2ccccc2c1-n1c(C)nnc1SCC(=O)Nc1ccc(S(N)(=O)=O)cc1Cl", "mutations": "Y188L", "result": "0.004 µM"}